# Library screen at single concentrations

Data taken from ChEMBL document CHEMBL3988442, “University of Dundee, Small-Polar-MMV Screening Library” (2021).

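Phenotypic screen: M. tuberculosis growth, glucose 7H9 medium, 3 days; the read-out is not stated. Compounds at 500 µM. The record gives no direction; compounds that gave an IC50 in retests scored well above the rest, so higher reads as more growth inhibition. About 18,000 compounds were tested under these conditions; 7.9% (about 1,400) showed 50% or more at least once.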

Each number is a percent effect as filed.
The record does not define 0% and 100%; most values in the screen are far below 50% and negative numbers occur (in some assays of this library far below -100).
The entries come from a sample that favours strong results.

| SMILES | percent effect |
|---|---|
| `CNC(=O)CCNCc1ccc(Br)cc1` | 37.23% |
| `Cc1cc(CNS(=O)(=O)N(C)C)ccc1F` | 31.98% |
| `OC1CCNCc2ccccc21` (stereo not shown) | 35.84% |
| `c1n[nH]c2c1CNC2` | 1.962% |
| `O=C(CN(CC(=O)NC1CC1)C1CC1)NC1CC1` | -1.456% |
| `Cc1ccc(C(C)NC(=O)CNC(=O)C2CCCC2)o1` (stereo not shown) | -0.02434% |
| `Cc1noc(C)c1S(=O)(=O)NCCCN1CCCC1=O` | 14.84% |
| `CSC(C)(C)CNC(=O)NCCC1CCCO1` (stereo not shown) | 17.11% |
| `Nc1nc(C2CC(O)C2)cc(N2CC(O)C2)n1` (stereo not shown) | 10.06% |
| `CC(C)CC(NC(N)=O)C(=O)Nc1cc(F)cc(F)c1` (stereo not shown) | 56.34% |
| `Cn1ncc2ccc(CN)cc21` | 13.74% |
| `CCNS(=O)(=O)C1CCN(Cc2cc(C#N)cs2)C1` (stereo not shown) | 37.04% |
| `O=C1NCC(C(=O)NCCCc2ccc(Cl)cc2)N1` (stereo not shown) | 51.49% |
| `COc1ccccc1-c1cc(N)no1` | 27.08% |
| `Cc1n[nH]cc1CNCc1ccccc1CO` | 34.64% |
| `Nc1nnc(SCc2coc(-c3ccccc3)n2)[nH]1` | 65.71% |
| `C[C@H](c1ccc(Cl)cc1)n1c(CCN)n[nH]c1=O` | 51.91% |
| `Cc1ccc(C(=O)NCC(c2ccco2)N(C)C)cn1` (stereo not shown) | 22.73% |
| `CSc1ccccc1C(=O)NCc1n[nH]c(C)n1` | 14.32% |
| `COC(=O)CCSc1nncs1` | 7.075% |
| `CCC(C)(C#N)NC(=O)c1ccc(C)nc1` (stereo not shown) | 4.887% |
| `N#Cc1ccc(C(=O)NCC2CC2)cc1` | 58.71% |
| `CNC(=O)C(O)CNS(=O)(=O)c1ccc(C)cc1F` (stereo not shown) | 7.335% |
| `CCC(C)(N)c1nc(=O)c2c([nH]1)CCC2` (stereo not shown) | -1.916% |
| `NS(=O)(=O)CC1CCN(c2ncc(Br)cn2)CC1` | 78.36% |
| `CC(N)CC1CCOCC1` (stereo not shown) | -1.329% |
| `CCN(CCC(N)=O)Cc1cccc2c1OCO2` | 61.04% |
| `OC1(CNc2nc(-c3ccccc3)ns2)CCSC1` (stereo not shown) | 73.37% |
| `NCC(CO)Cc1ccc(Br)cc1` (stereo not shown) | 49.76% |
| `COC1CCN(Cc2cccc(OCC(N)=O)c2)C1` (stereo not shown) | 17.01% |
| `CCNC(=O)N1CCN(Cc2ccc(OC)nc2)CC1` | 5.386% |
| `CCC(=O)NCC(c1ccsc1)N(C)C` (stereo not shown) | 9.3% |
| `CC(C)CCC(=O)N1CCC(C)(CO)C1` (stereo not shown) | 14.47% |
| `CS(=O)(=O)N1CC(CO)C1` | 4.241% |
| `CCOC(=O)Cn1nnc(-c2ccc(F)cc2)n1` | 16.69% |
| `CCCn1nnnc1NCc1ccc(C)s1` | 71.74% |
| `Cc1cc(F)ccc1CN1CCOC(CCN)C1` (stereo not shown) | 39.34% |
| `Cc1ccc2ncc(CCN)cc2c1` | 47.55% |
| `C[C@@H](C(=O)NCCCc1cccnc1)n1cnnn1` | 10.86% |
| `CCn1cc(C(=O)Nc2ccc(Br)cn2)cn1` | 0.4415% |
| `COc1ccc(CCC(=O)N2CCCNCC2)cc1` | 15.9% |
| `O=C(CNCC1CC1)Nc1ccc(F)cc1` | 60.19% |
| `COCCOCCn1nc(C)c(C#N)c1N` | 8.067% |
| `NC(=O)C1CCN(CCCOc2ccccc2)CC1` | 7.649% |
| `COCc1noc(-c2ccc(C#N)cc2)n1` | -8.994% |
| `Cc1ccc(C(=O)N(C)CCCS(C)(=O)=O)cc1` | -5.26% |
| `Cc1cccc(OCC(O)CNc2ncccc2F)c1` (stereo not shown) | 73.34% |
| `CC(C)(C)NCC(=O)Nc1ccc(Cl)cn1` | 27.28% |
| `CCn1ccnc1CNc1ccn(CCCOC)n1` | 4.151% |
| `CN1CCCN(S(=O)(=O)c2ccccc2)CC1` | 26.16% |
| `O=C(CCN1CCCC1c1ccsc1)N1CCOCC1` (stereo not shown) | 30.75% |
| `COCCC(C)Nc1c[nH]nc1-c1ccccn1` (stereo not shown) | 53.59% |
| `O=C(c1cccs1)N1CCCN(Cc2cscn2)CC1` | 41.69% |
| `COc1cccnc1NCc1cc(C(N)=O)cs1` | 24.07% |
| `NC(=O)CS(=O)(=O)Cc1ccc(Cl)cc1` | 18.3% |
| `COc1ccc(CCC(=O)NC2(C#N)CCC2)cc1` | 41.71% |
| `NC(=O)CN1CCC(NC(=O)c2csc(Br)c2)CC1` | 36.1% |
| `CCOc1cccc(OCCCN2CCNCC2)c1` | 14.29% |
| `CC(=O)N1CCN(Cc2cccc(N)n2)CC1` | 12.88% |
| `NC(=O)Nc1cccc(C(=O)Nc2ccc(Cl)cn2)c1` | 79.93% |
| `CN(C)c1ccc(NC(=O)NC2CCSCC2)nc1` | -2.344% |
| `O=C(N[C@@H]1CCNC[C@H]1O)c1ccc(Cl)cn1` | 1.833% |
| `O=C(NCc1ccc2c(c1)OCO2)N1CCCCC1` | 73.65% |
| `COc1ccccc1C(C)NC(=O)Cn1cc(C)cn1` (stereo not shown) | 51.09% |
| `CC1CN(C(=O)CCCNC(=O)c2ccco2)CCO1` (stereo not shown) | 6.741% |
| `COCCCOC1CN(C(=O)c2ccc(Cl)cn2)C1` | 61.68% |
| `N#Cc1ccc2nc[nH]c2c1` | -4.812% |
| `CC1=NOC(C(=O)NCCCn2nc(C)nc2C)C1` (stereo not shown) | 13.69% |
| `Cc1cc(C)c(CNC(=O)CN2CSCC2=O)c(=O)[nH]1` | -3.574% |
| `O=C(NCCSc1ccccn1)C1CCCCO1` (stereo not shown) | 55.5% |
| `CN1CCC(NC(=O)c2ccc(C#N)cc2)CC1` | -18.27% |
| `COC(=O)c1snc(-c2ccccc2)c1N` | 30.26% |
| `CN(CC(=O)N1CCNC1=O)CC1CCCCC1` | -5.986% |
| `CSc1ccc(CN(C)[C@H]2COC[C@@H]2O)cc1` | 28.67% |
| `CCCn1cc(S(=O)(=O)N2C[C@H](C3CC3)[C@@H](N)C2)cn1` | 5.609% |
| `CCn1ccnc1CN1CCC(=O)NCC1C` (stereo not shown) | -0.9947% |
| `N[C@H]1CCN(C(=O)c2cc(F)cc(C(F)(F)F)c2)C1` | 7.513% |
| `COc1ccc2c(c1)C=C(S(N)(=O)=O)CC2` | 9.754% |
| `c1ccc(CNC2CCSC2)nc1` (stereo not shown) | 26.55% |
| `CCn1ncnc1CN1CCCC(CS(C)(=O)=O)C1` (stereo not shown) | 0.4206% |
| `CC(CNC(=O)c1nccnc1N)Cn1ccnc1` (stereo not shown) | 24.17% |
| `C[C@H](CO)N(C)C(=O)Cc1cccc(OC(F)(F)F)c1` | 6.64% |
| `NC(=O)CN1CCC(COCc2ccccc2)C1` (stereo not shown) | 74.98% |
| `c1cnc(C2CCCN2)nc1` (stereo not shown) | -1.501% |
| `NCc1ccc(CNC(=O)C2CCCCO2)cc1` (stereo not shown) | 25.8% |
| `CNCc1ccc(C(=O)NC)o1` | 5.346% |
| `CCNc1ncc(C(=O)N2CCCc3sccc3C2)s1` | -2.619% |

The first 5 entries again:

* CNC(=O)CCNCc1ccc(Br)cc1 : 37.23%
* Cc1cc(CNS(=O)(=O)N(C)C)ccc1F : 31.98%
* OC1CCNCc2ccccc21 (stereo not shown) : 35.84%
* c1n[nH]c2c1CNC2 : 1.962%
* O=C(CN(CC(=O)NC1CC1)C1CC1)NC1CC1 : -1.456%